A mixed list of measured activities; the numbers were collected in NIAID ChemDB.

All rows: growth or infection tests; agent: HIV-1; measure: inhibition

Neighbouring rows are from separate reports. An empty or dashed field is not shown. a–b is a range or a potency band. Percent inhibition refers to the dose given; in toxicity tests it is the harm to the cells.

smiles	setting	strain or isolate	mutations	cells	dose	read by	value
Nc1nc2c(ncn2[C@H]2CC[C@@H](CO)O2)c(=O)[nH]1		IIIB		MT-2	50 µM	cytopathic effect / trypan blue	40%
C/C=C(\C)C(=O)O[C@H]1[C@@]2(C)C[C@]3(O)[C@@]1(O)[C@H]1OC4(C)O[C@@]5(C[C@H](O)[C@]6(C)C(=CC(=O)O[C@H]6c6ccoc6)[C@@]15O4)[C@]3(C)[C@H]2CC(=O)OC	pseudotyped	NL4-3		SupT1	20 µM	luciferase / luminescence	0%
Nc1nc(F)c2ncn([C@H]3CC[C@@H](CO)O3)c2n1		BaL		MM + M/M	2 µM	cytopathic effect / trypan blue	100%
C/C(=C(/CCOC(=O)C(C)C)SS/C(CCOC(=O)C(C)C)=C(\C)N(C=O)Cc1cnc(C)nc1N)N(C=O)Cc1cnc(C)nc1N		RF		U-937/HIV-1(RF) + U-937	50 µM	p24	0%
COc1cc(O)c2c(c1)C(=O)c1c(cc3c(c1O)-c1c(cc(C)c(C(=O)N[C@H](C)C(=O)O)c1O)[C@H](O[C@@H]1O[C@H](C)[C@H](O)[C@H](O[C@@H]4OC[C@@H](OS(=O)(=O)O)[C@H](O)[C@H]4O)[C@H]1O)[C@H]3O)C2=O		IIIB		MT-4	10 µg/mL	antigen	<10%
NC(=O)c1ncn([C@@H]2O[C@H](CO)[C@@H](O)[C@H]2O)n1				ATH8	2.5 µM	cytopathic effect	0%
COC(=O)[C@@H](C)NC(=O)c1c(C)cc2c(c1O)-c1c(cc3c(c1O)C(=O)c1cc(OC)cc(O)c1C3=O)[C@H](O)[C@H]2O[C@@H]1O[C@H](C)[C@H](O)[C@H](O[C@@H]2OC[C@@H](O)[C@H](O)[C@H]2O)[C@H]1O		IIIB		MT-4	10 µg/mL	antigen	<10%
CC(C)[C@H](NC(=O)c1ccc2ccccc2n1)C(=O)N[C@@H](Cc1ccccc1)[C@H](O)CN1CC[C@@H](OCc2ccncc2)C[C@H]1C(=O)NC(C)(C)C		ADA		Macrophage + Monocytes/macrophages	0.012 µM	p24	90%
CCC(C)C(=O)O[C@H]1C(C)(C)[C@H](CC(=O)OC)[C@]2(C)C(=O)[C@@]1(O)C=C1C3=CC(=O)O[C@@H](c4ccoc4)[C@]3(C)CC[C@@H]12	pseudotyped	NL4-3		SupT1	100 µM	luciferase / luminescence	98.56%
COc1cc(O)c2c(c1)C(=O)c1c(cc3c(c1O)-c1c(cc(C)c(C(=O)N[C@H](C)C(=O)O)c1O)[C@H](O[C@@H]1O[C@H](CO)[C@H](NC(C)=O)[C@H](O)[C@H]1O)[C@H]3O)C2=O		IIIB		MT-4	30 µg/mL	antigen	<10%
Nc1ccn([C@@H]2CS[C@H](CO)O2)c(=O)n1		BZ X4		PBL (resting) + PBL	5 µM	RT activity	100%
O=C(O)P(=O)(O)O	28 d	IIIB		PBL	256 µM	RT activity	99%
CC(C)Nc1cccnc1N1CCN(C(=O)c2cc3cc(NS(C)(=O)=O)ccc3[nH]2)CC1		HXBE30(RT-P236L)	RT-P236L	MT-4	1 µM	antigen	90%
O=c1[nH]cnc2c1ncn2[C@H]1CC[C@@H](CO)O1		ddI-resistant (RT K65R/L74V/M184V)	RT-K65R L74V M184V	PBMC	10 µM	p24	20%
CCN1CCCC(OC(=O)C(c2ccccc2)c2ccccc2)C1		LAV		MT-4	100 µg/mL		0%
O=S(=O)(O)c1cc(N=C=S)ccc1/C=C/c1ccc(N=C=S)cc1S(=O)(=O)O		RF		C8166	100 µg/mL	p24	95.2%
Oc1ccc(/C=C/c2cc(O)cc(O)c2)cc1		SF162		MDM	10 µM	p24	40–60%
COc1cc(O)c2c(c1)C(=O)c1c(cc3c(c1O)-c1c(cc(C)c(C(=O)N[C@H](C)C(=O)O)c1O)[C@H](O[C@@H]1O[C@H](C)[C@H](O)[C@H](O)[C@H]1O)[C@H]3O)C2=O		IIIB		MT-4	30 µg/mL	antigen	40%
O=C1N(Cc2ccc(CO)cc2)[C@H](Cc2ccccc2)[C@H](O)[C@@H](O)[C@@H](Cc2ccccc2)N1Cc1ccc(CO)cc1		RF		H9	0.04 µM	virus yield	90%
CCCC[NH+]1[C@@H]2C[C@H](OC(=O)[C@H](CO)c3ccccc3)CC[C@H]1[C@H]1O[C@H]12		LAV		MT-4	100 µg/mL		0%
Cc1cn([C@H]2C[C@H](N=[N+]=[N-])[C@@H](COP(=O)(O)OC[C@H]3OC(O)[C@H](O)[C@@H](O)[C@@H]3O)O2)c(=O)[nH]c1=O	11 d	LAV-Bru		U-937	1 µM	RT activity	0%
COc1ccc(CN[C@@H](C(=O)N[C@H]2c3ccccc3C[C@H]2O)[C@H](O)[C@H](Cc2ccccc2)NC(=O)[C@@H](NC(=O)OCc2ccccc2)C(C)(C)C)cc1		HEM		Primary T4 cells + T4	0.23 µM	p24	90%
Cc1cn([C@H]2C[C@H](N=[N+]=[N-])[C@@H](CO)O2)c(=O)[nH]c1=O		IIIB		PBL (activated) + PBL	0.03 µM	RT activity	98%
Cc1cn([C@H]2C[C@H](N=[N+]=[N-])[C@@H](CO)O2)c(=O)[nH]c1=O	14 d	LAV-Bru		U-937	1 µM	RT activity	0%
COc1cc(O)c2c(=O)oc3cc(O)cc(C)c3c2c1	pseudotyped	NL4-3		Jurkat cells	60 µM	luciferase	88%
O=c1[nH]cnc2c1ncn2[C@H]1CC[C@@H](CO)O1		IIIB		MT-2	10 µM	cytopathic effect / trypan blue	95%
Nc1ccn([C@@H]2C=C[C@@H](CO)[C@H](CO)S2)c(=O)n1				PBMC	0.1 µM	p24 / antigen	25%
CCNc1cccnc1N1CCN(C(=O)c2cc3cc(OC)ccc3[nH]2)CC1		Seropositive clinical isolate C		PBMC	1 µM	MTT	63%
CCC(C)C(=O)O[C@H]1[C@@]2(C)C[C@]3(O)[C@@]1(O)C(=O)C1=C(CC[C@]4(C)C1=CC(=O)O[C@H]4c1ccoc1)[C@]3(C)[C@H]2C(O)C(=O)OC	pseudotyped	NL4-3		SupT1	100 µM	luciferase / luminescence	31.83%
Cc1cn([C@H]2C[C@H](N=[N+]=[N-])[C@@H](COP(=O)(O)OC[C@H]3OC(O)[C@@H](O)[C@@H](O)[C@@H]3O)O2)c(=O)[nH]c1=O	22 d	LAV-Bru		CEM	0.2 µM	RT activity	0%
Cc1cn([C@H]2C=C[C@@H](CO)O2)c(=O)[nH]c1=O		SF162 R5		PBL (resting) + PBL	4 µM	RT activity	24%
CCC(C)C(=O)O[C@H]1C(C)(C)[C@H](C(O)C(=O)OC)[C@]2(C)C(=O)[C@@]1(O)[C@@H](O)C1=C3CC(=O)O[C@@H](c4ccoc4)[C@]3(C)CC[C@@H]12	pseudotyped	NL4-3		SupT1	100 µM	luciferase / luminescence	15.15%
O=C1Nc2ccc(Cl)cc2C(c2ccccc2Cl)=NC1O		LAV		MT-4	1 µg/mL		0%
O=C(O)P(=O)(O)O	6 d	IIIB		H9	300 µM	p24 / antigen	92%
OC[C@@H]1CC[C@H](n2cnc3c(Br)ncnc32)O1		IIIB		ATH8	20 µM	cytopathic effect / trypan blue	80%
CN1CCN(CCCN2c3ccccc3Sc3ccc(Cl)cc32)CC1		LAV		MT-4	10 µg/mL		99.4%
Nc1ncnc2c1ncn2[C@H]1CC[C@@H](CO)O1		LAV-1		CEM	10 µM	virus yield	99.9%
CC(C)=CCC/C(C)=C/CC/C(C)=C/CCC(=O)OC/C=C(\C)CCC=C(C)C		LAV		MT-4	100 µg/mL		0%
COC(=O)[C@H](OC(C)=O)[C@H]1C(C)(C)[C@H](OC(=O)C(C)C)[C@]2(O)CC3=C4CC(=O)O[C@@H](c5ccoc5)[C@]4(C)CC[C@@H]3[C@@]1(C)C2=O	pseudotyped	NL4-3		SupT1	100 µM	luciferase / luminescence	53.74%
c1cc(CN2CCCNCCNCCCNCC2)ccc1CN1CCCNCCNCCCNCC1		CM1 CLADE C R5		PBMC	0.5 µM	p24	0%
CCN1CCCC1CNC(=O)c1cc(S(N)(=O)=O)ccc1OC		LAV		MT-4	100 µg/mL		0%

Repeating the first 3 entries:

| smiles | setting | strain or isolate | mutations | cells | dose | read by | value |
|---|---|---|---|---|---|---|---|
| Nc1nc2c(ncn2[C@H]2CC[C@@H](CO)O2)c(=O)[nH]1 |  | IIIB |  | MT-2 | 50 µM | cytopathic effect / trypan blue | 40% |
| C/C=C(\C)C(=O)O[C@H]1[C@@]2(C)C[C@]3(O)[C@@]1(O)[C@H]1OC4(C)O[C@@]5(C[C@H](O)[C@]6(C)C(=CC(=O)O[C@H]6c6ccoc6)[C@@]15O4)[C@]3(C)[C@H]2CC(=O)OC | pseudotyped | NL4-3 |  | SupT1 | 20 µM | luciferase / luminescence | 0% |
| Nc1nc(F)c2ncn([C@H]3CC[C@@H](CO)O3)c2n1 |  | BaL |  | MM + M/M | 2 µM | cytopathic effect / trypan blue | 100% |